# Results deposited as PubChem BioAssay AID1259414 (Drosophila RNAi Screening Center, 2018)
# Test: 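Host factors increasing or decreasing Wolbachia levels in cultured fly cells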 (primary screen)
# Cell system: Drosophila JW18 cells infected with Wolbachia
# Reagents: long dsRNA against Drosophila genes, 0.25 µg dsRNA per well of a 384-well plate
# Time to read-out: 5 days
# Challenge: cells persistently infected with Wolbachia before knock-down; no added drug
# Read-out: 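Imaged fluorescence in situ signal for Wolbachia 23S rRNA per DAPI-counted host cell, given as a robust z-score within each plate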
# Direction: Wolbachia per cell robust z: higher = more Wolbachia per host cell than the plate typical
# Active means: 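Hit when robust z is 1.5 or more, or -1.5 or less, in at least two of three replicates; excludes dsRNAs with several or no targets, genes not expressed in JW18 and well A1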
# In all, the deposit lists about 24,000 reagents; shown is a random part of those with a known target gene and a result. Of all reagents, about 1,210 (5%) got an active call. 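Inactive calls also include excluded dsRNAs with several or no targets, genes unexpressed in JW18, and well A1, regardless of score.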 Reagents against one gene are numbered here. A plus sign joins genes that one reagent is predicted to hit.
gene,dsRNA no.,"Wolbachia per cell robust z, rep 1","Wolbachia per cell robust z, rep 2","Wolbachia per cell robust z, rep 3",Outcome
S-Lap1 (Sperm-Leucylaminopeptidase 1),1,-0.179,-1.01,-0.325,inactive
sol (small optic lobes),1,0.185,0.304,-0.226,inactive
sol (small optic lobes),2,1.1,1.35,0.698,inactive
Cyp6a9 (Cytochrome P450 6a9),1,-2.88,-0.52,-0.465,inactive
Bro,1,0.482,-0.287,-2.69,inactive
COX4 (Cytochrome c oxidase subunit 4),1,-0.149,1.61,1.21,inactive
COX4 (Cytochrome c oxidase subunit 4),2,0.432,1.1,1.01,inactive
hay (haywire),1,-0.0759,-3.52,-0.799,inactive
Gr22f (Gustatory receptor 22f),1,-0.171,0.0475,0.624,inactive
Gr22f (Gustatory receptor 22f),2,0.402,-3.61,0.255,inactive
CG34015,1,0.243,-2.29,1.42,inactive
CG8136,1,0.753,0.0057,-0.772,inactive
CG8136,2,-0.378,-1.11,-0.903,inactive
jagn (jagunal),1,-2.17,0.238,0.579,inactive
CG14717,1,0.726,1.82,0.428,inactive
Gpo1 (Glycerophosphate oxidase 1),1,-0.117,0.976,0.237,inactive
CG31268,1,-1.06,-0.0107,0.146,inactive
Fer1HCH (Ferritin 1 heavy chain homologue),1,1.02,1.01,1.3,inactive
Fer1HCH (Ferritin 1 heavy chain homologue),2,0.334,-0.277,0.767,inactive
mRpS31 (mitochondrial ribosomal protein S31),1,-0.0224,-0.48,-0.0868,inactive
CG3679,1,0.154,0.404,-0.62,inactive
CG3679,2,0.847,-1.26,-1.78,inactive
CG13978,1,-2.17,-0.561,0.57,inactive
CG2111,1,1.79,-1.62,-0.428,inactive
CG2111,2,0.26,1.41,0.394,inactive
CG3735,1,0.139,-0.247,0.262,inactive
dpr8 (defective proboscis extension response 8),1,-0.216,-3.5,-2.97,inactive
dpr8 (defective proboscis extension response 8),2,-0.73,-0.987,-5.11,inactive
dpr8 (defective proboscis extension response 8),3,-4.45,0.0793,-2.02,inactive
dpr8 (defective proboscis extension response 8),4,0.456,-1.37,-2.19,inactive
CG13306,1,0.974,0.678,1.35,inactive
Cyp304a1 (Cytochrome P450 304a1),1,-2.8,-0.466,-1.55,active
CG3337,1,0.919,0.306,-0.204,inactive
CG14106,1,0.211,1.28,0.417,inactive
Mvb12 (Multivesicular body subunit 12),1,1.09,0.929,1.44,inactive
Dr (Drop),1,-0.587,-0.298,0.193,inactive
Dr (Drop),2,0.0113,0.71,1.1,inactive
dgrn (degringolade),1,0.56,0.641,0.258,inactive
HLH3B (Helix loop helix protein 3B),1,0.818,0.0909,-3.36,inactive
HLH3B (Helix loop helix protein 3B),2,-0.635,-0.124,-0.755,inactive
CG34245,1,-0.904,0.0659,0.213,inactive
CG18170 + CG12105 + CG33791,1,1.23,-0.517,1.1,inactive
CG32485,1,-0.89,-2.26,-1.54,active
sv (shaven),1,1.09,1.07,0.241,inactive
sv (shaven),2,-0.105,-0.587,-5.71,inactive
sv (shaven),3,-1.01,-0.684,-1.59,inactive
CG8860,1,0.153,0.505,-0.0781,inactive
CG8860,2,-0.357,0.781,1.25,inactive
TBC1D23 (TBC1 domain family member 23),1,-1.8,-0.037,-0.076,inactive
TBC1D23 (TBC1 domain family member 23),2,0.872,2.38,1.07,inactive
CG13460,1,0.32,-0.588,0.467,inactive
gw (gawky),1,0.76,2.79,1.27,inactive
gw (gawky),2,2.64,2.61,3.59,active
gw (gawky),3,2.12,4.09,4.7,active
fd19B (forkhead domain 19B),1,-0.269,-1.82,-0.789,inactive
fd19B (forkhead domain 19B),2,0.194,-1.12,0.000801,inactive
ClpP (Caseinolytic protease proteolytic subunit),1,0.518,-0.641,1.03,inactive
PEK (pancreatic eIF-2alpha kinase),1,0.147,1.58,-0.505,inactive
CG34175,1,-1.49,-0.45,-0.971,inactive
CG34175,2,-1.58,-1.83,0.496,inactive
Myo95E (Myosin 95E),1,-0.409,-0.0171,1.06,inactive
CG1572,1,-3.38,0.0463,-0.916,inactive
CG13810,1,-0.396,-2.84,-0.863,inactive
CG13810,2,0.299,0.689,0.204,inactive
CG13810,3,0.599,0.938,0.451,inactive
Atg14 (Autophagy-related 14),1,0.771,-0.774,0.161,inactive
Atg14 (Autophagy-related 14),2,-0.761,-0.369,0.867,inactive
CG18809,1,-3.61,-1.56,-1.14,active
CG18809,2,0.509,-0.25,-0.286,inactive

Targets above whose gene name starts with M or m (3):
gene,dsRNA no.,"Wolbachia per cell robust z, rep 1","Wolbachia per cell robust z, rep 2","Wolbachia per cell robust z, rep 3",Outcome
mRpS31 (mitochondrial ribosomal protein S31),1,-0.0224,-0.48,-0.0868,inactive
Mvb12 (Multivesicular body subunit 12),1,1.09,0.929,1.44,inactive
Myo95E (Myosin 95E),1,-0.409,-0.0171,1.06,inactive
